Compound potency records, mixed from different reports. Data source: NIAID ChemDB in PubChem.

All rows: tests in culture; agent: Mycobacterium tuberculosis

ECn is the concentration giving n% inhibition of infection, replication or growth. MIC bound: limit read from a one-dose screen. Neighbouring rows are from separate reports. An empty or dashed field is not shown. Inhibition is in % at the dose shown (toxicity tests: loss of growth or viability).

| structure | dose | strain | endpoint | cell line | method | value |
|---|---|---|---|---|---|---|
| c1ccc(Cc2nc3ccccc3o2)cc1 | - | H37Rv | MIC | - | - | 50 µg/mL |
| COc1ccc2c(c1)n([O-])c1ccccc1[n+]2=O | 12.5 µg/mL | H37Rv | inhibition | - | BACTEC | 100% |
| O=C(CC(=O)Nc1ccccc1)CC(=O)Nc1ccccc1 | - | H37Rv | MIC | - | - | >100 µg/mL |
| Nc1c(-c2c(Cl)cccc2Cl)[n+]([O-])c2ccccc2[n+]1[O-] | - | CS-R | MIC | - | - | 6.3 µg/mL |
| CC(NCCNCc1ccccc1Sc1ccccc1CO)C12CC3CC(CC(C3)C1)C2 | - | - | MIC | - | - | 50 µM |
| Nc1ccc(N)c2c1C(=O)c1ccccc1C2=O | - | H37Rv | MIC | - | - | >100 µg/mL |
| CO[C@H]1/C=C/O[C@@]2(C)Oc3c(C)c(O)c4c(O)c(c(/C=N/N5CCN(C/C=C/c6ccccc6)CC5)c(O)c4c3C2=O)NC(=O)/C(C)=C\C=C\[C@H](C)[C@H](O)[C@@H](C)[C@@H](O)[C@@H](C)[C@H](OC(C)=O)[C@@H]1C | - | 9 (rifampin-resistant) | MIC | - | - | 0.05 µg/mL |
| CN1CC(O)C2=CC(=O)C(=O)C=C21 | 12.5 µg/mL | H37Rv | inhibition | - | BACTEC | 13% |
| Cc1ccc(S(=O)(=O)NCO)cc1 | - | H37Rv | MIC | - | - | >100 µg/mL |
| Cc1c2ccncc2cc2c1sc1ccncc12 | - | H37Rv | MIC bound | - | resazurin | >6.25 µg/mL |
| Fc1ccc(CCNCCNCC(c2ccccc2)c2ccccc2)cc1 | - | - | MIC | - | - | 25 µM |
| COCCCC12C=C(OC)C(=O)C=C1OC(c1cc(OC)c(OC)c(OC)c1)C2C | 12.5 µg/mL | H37Rv | inhibition | - | BACTEC | 19% |
| COc1ccc(C(=O)C(=O)c2ccc(OC)cc2)cc1 | - | H37Rv | MIC | - | - | >100 µg/mL |
| CCOC(=O)Nc1cc(NC(c2ccccc2)c2ccccc2)c([N+](=O)[O-])c(NC/C(C)=N/NC(=O)O)n1 | 12.5 µg/mL | H37Rv | inhibition | - | - | 0% |
| CCCCCCCCCCCNCCNC[C@@H](C)O | - | - | MIC | - | - | 50 µM |
| C=C(C)C1CC2(C)C(C)CC(O)CC2C(OC(=O)C=C(C)C)C1O | 6.25 µg/mL | H37Rv | inhibition | - | resazurin | 9% |
| COc1ccc(Cl)c(C)c1 | - | H37Rv | MIC | - | - | >100 µg/mL |
| COc1ccc2c(c1)N(C[C@H](C)CN(C)C)c1ccccc1S2 | - | H37Rv | MIC bound | - | BACTEC | >12.5 µg/mL |
| Cc1nc2ccccc2o1 | - | H37Rv | MIC | - | - | >100 µg/mL |
| CC(CNCCC(c1ccccc1)c1ccccc1)NCCC1=CCCCC1 | - | - | MIC | - | - | 12.5 µM |
| Cc1[o+]c(C)c2c(c1C)-c1ccccc1C2=O.[O-][Cl+3]([O-])([O-])[O-] | - | H37Rv | MIC bound | - | BACTEC | >12.5 µg/mL |
| [N-]=[N+]=NC(=O)c1csc(CCCOc2ccccc2)c1NC(=O)c1ccccc1 | - | H37Rv | MIC | - | - | >100 µg/mL |
| CCCCOCCN1CCN(CCCN2c3ccccc3Sc3ccc(C(F)(F)F)cc32)CC1.Cl.Cl | - | H37Rv | MIC bound | - | BACTEC | ≤12.5 µg/mL |
| CO[C@H]1/C=C/O[C@@]2(C)Oc3c(C)c(O)c4c(=O)c(c5oc6cc(N7CCN(CC(C)C)CC7)cc(=O)c6nc5c4c3=C2O)NC(=O)/C(C)=C\C=C\[C@H](C)[C@H](O)[C@@H](C)[C@@H](O)[C@@H](C)[C@H](OC(C)=O)[C@@H]1C | - | 9 (rifampin-resistant) | MIC | - | - | 0.025 µg/mL |
| CCOC(=O)Nc1cc(NCc2ccc(S(N)(=O)=O)cc2)c(N)c(N)n1 | 12.5 µg/mL | H37Rv | inhibition | - | - | 0% |
| CC(=O)C(N=Nc1nn[nH]n1)C(C)=O | - | H37Rv | MIC bound | - | - | >6.25 µg/mL |
| COc1ccc2c(=O)c(-c3c(-c4ccccc4)oc4cc(OC)ccc4c3=O)c(-c3ccccc3)oc2c1 | - | - | EC50 | - | - | >12.5 µg/mL |
| CCOC(=O)Nc1cc2nc(C)c(-c3ccc(O)cc3)nc2c(N)n1 | - | H37Rv | EC50 | - | - | >12.5 µg/mL |
| CCCCCNCCNCC12CC3CC(CC(C3)C1)C2 | - | - | MIC | - | - | 50 µM |
| CCN(CC(N)=O)c1cccc(C)c1 | - | H37Rv | MIC | - | - | >100 µg/mL |
| Cc1cc(C)n(C2=NS(=O)(=O)c3ccccc3N2C)n1 | - | H37Rv | MIC bound | - | BACTEC | >6.25 µg/mL |
| NC(=O)c1ccccc1O | - | H37Rv | MIC | - | - | >100 µg/mL |
| CN(C)CCCNc1cc(/C=C/c2cccc3ccccc23)nc2ccccc12 | - | H37Rv | MIC bound | - | - | >6.25 µg/mL |
| CCCOC(=O)Nc1cc(NC(c2ccccc2)c2ccccc2)c2nc(-c3cc(OC)c(OC)c(OC)c3)c(-c3cc(OC)c(OC)c(OC)c3)nc2n1 | - | H37Rv | EC50 | - | - | >12.5 µg/mL |
| CC1=CC(O)CC(C)(C)C1/C=C/C(C)=C/C=C/C(C)=C/C=C/C=C(C)/C=C/C=C(C)/C=C/C1=C(C)CC(O)CC1(C)C | - | H37Rv | MIC bound | - | BACTEC | >12.5 µg/mL |
| O=C(c1ccccc1)c1ccc(Cl)cc1Cl | - | H37Rv | MIC | - | - | 25 µg/mL |
| CC(CNC[C@@H]1CC[C@H]2C[C@@H]1C2(C)C)N[C@H]1C[C@H]2C[C@@H]([C@@H]1C)C2(C)C | - | - | MIC | - | - | 25 µM |
| CCN1CC(=O)N(C)C1=S | - | H37Rv | MIC | - | BACTEC | >12.5 µg/mL |
| COc1ccc(CNCCNCCc2ccccc2Cl)c(OC)c1 | - | - | MIC | - | - | 50 µM |
| CCOC(=O)Nc1cc(NC(C)[C@H](C)c2ccccc2)c(N)c(N)n1 | 12.5 µg/mL | H37Rv | inhibition | - | - | 56% |
| Clc1cc[c]([Sb]([c]2ccc(Cl)cc2)[c]2ccc(Cl)cc2)cc1 | - | H37Rv | MIC | - | - | >100 µg/mL |
| O=C1c2ccccc2OC(c2ccccc2)C1(Br)Br | 12.5 µg/mL | H37Rv | inhibition | - | - | 0% |
| Nc1ccc(Sc2ccc([N+](=O)[O-])cc2)cc1 | - | H37Rv | MIC | - | - | 50 µg/mL |
| CN1C(=O)OC(c2ccc(Cl)cc2)C1=O | 12.5 µg/mL | H37Rv | inhibition | - | BACTEC | 0% |
| CC(=O)SCC(=O)Nc1cc(C)ccc1O | - | H37Rv | MIC | - | - | >100 µg/mL |
| C[C@H](NCCNCCc1ccc(Cl)cc1Cl)C1CCCCC1 | - | - | MIC | - | - | 50 µM |
| Nc1cccc2c(Br)cncc12 | - | H37Rv | MIC | - | - | 100 µg/mL |
| CC(O)C/C=N/NC(=O)C(=O)N/N=C/CC(C)O | 12.5 µg/mL | H37Rv | inhibition | - | BACTEC | 7% |
| Cc1cc(O)c2c(c1)oc(=O)c1ccc(C)cc12 | - | H37Rv | MIC | - | - | >100 µg/mL |
| COc1ccc2c(c1)OC(c1ccccc1)CC2=O | 12.5 µg/mL | H37Rv | inhibition | - | - | 0% |
| Oc1c(CN2CCCC2)cc(Nc2cc(/C=C/c3ccc(Cl)cc3)nc(/C=C/c3ccc(Cl)cc3)n2)cc1CN1CCCC1 | - | H37Rv | MIC | VERO | - | 6.25 µg/mL |
| Nc1ccc(NCCNS(=O)(=O)c2ccccc2)cc1 | - | H37Rv | MIC | - | - | 25 µg/mL |
| C=CCN(CC=C)C(=O)C1C2CC3OC(=O)C1C3C2 | 12.5 µg/mL | H37Rv | inhibition | - | BACTEC | 25% |
| O=C(/C(=C\c1ccccc1)N1CCCCC1)c1ccccc1 | - | H37Rv | MIC | - | - | >100 µg/mL |

For reference, 7 entries again:

structure,dose,strain,endpoint,cell line,method,value
Cc1c2ccncc2cc2c1sc1ccncc12,-,H37Rv,MIC bound,-,resazurin,>6.25 µg/mL
CCN1CC(=O)N(C)C1=S,-,H37Rv,MIC,-,BACTEC,>12.5 µg/mL
COc1ccc2c(c1)N(C[C@H](C)CN(C)C)c1ccccc1S2,-,H37Rv,MIC bound,-,BACTEC,>12.5 µg/mL
CC1=CC(O)CC(C)(C)C1/C=C/C(C)=C/C=C/C(C)=C/C=C/C=C(C)/C=C/C=C(C)/C=C/C1=C(C)CC(O)CC1(C)C,-,H37Rv,MIC bound,-,BACTEC,>12.5 µg/mL
CCN(CC(N)=O)c1cccc(C)c1,-,H37Rv,MIC,-,-,>100 µg/mL
COc1ccc2c(c1)OC(c1ccccc1)CC2=O,12.5 µg/mL,H37Rv,inhibition,-,-,0%
O=C(c1ccccc1)c1ccc(Cl)cc1Cl,-,H37Rv,MIC,-,-,25 µg/mL